Test results: article PMC3700907 (PLoS ONE, 2013)

Assay: Spontaneous amyloid fibril formation monitored by ThT binding assay
Format: physicochemical

## CC(=O)N[C@@H](CC(N)=O)C(=O)N[C@@H](CC(C)C)C(=O)N[C@@H](CCCCN)C(=O)N[C@@H](Cc1c[nH]cn1)C(=O)N[C@H](C(=O)N[C@@H](C)C(=O)NCC(=O)N[C@@H](C)C(=O)N[C@@H](C)C(=O)N[C@@H](C)C(=O)N[C@@H](C)C(=O)NCC(=O)N[C@@H](C)C(=O)N[C@H](C(=O)N[C@H](C(=O)NCC(=O)NCC(=O)N[C@@H](CC(C)C)C(=O)NCC(=O)NCC(N)=O)C(C)C)C(C)C)C(C)C [mPrP(107–126)]
754 µM peptide in 20 mM HEPES, pH 7.4, 100 mM NaCl, 0.01% NaN3, 37°C without shaking, ThT fluorescence, mean of three independent measurements
  average lag time for spontaneous amyloidogenesis: 41.2 h
Same conditions as mPrP(107–143) and mPrP(127–143): 140 mM NaCl, 20 mM NaOAc, pH 3.7, data not shown
  spontaneous fibril formation: did not form fibrils
